## Percent effect of library compounds

A: 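Whole-cell growth test on Mycobacterium tuberculosis, read after 4 days in a medium based on cholesterol and the lipid DPPC; the read-out is not stated. Concentration: 500 µM. Direction is inferred from retests: higher values go with more growth inhibition. Size under these conditions: about 18,000 compounds, about 900 of them at 50% or above in at least one test.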
B: 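Phenotypic screen: M. tuberculosis growth, glucose 7H9 medium, 3 days; the read-out is not stated. Compounds at 500 µM. Higher reads as more growth inhibition (inferred: compounds with an IC50 in retests scored well above the rest). About 18,000 compounds were tested under these conditions; 7.9% (about 1,400) showed 50% or more at least once.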

Results are given as percent effect.
The controls that fix the scale are not given in the record; negative values are as filed.
This is part of a subset picked to be rich in strong results.
A dash means the value is not listed here; it may have been measured.

SMILES	A	B
Cc1cccc(N2CCN(C3CC3)CC2)n1	-	6.122
COCCNC(=O)CN1CCCC(C)C1 (stereo not given)	-	7.009
Cc1ccoc1C(=O)N(C)Cc1snnc1C	-	30.33
NC(=O)c1ccc(-c2ccc(F)cc2)o1	15.52	24.33
NC1CCN(CC(F)F)CC1	-	-6.291
Cc1cc(NC(=O)Nc2cnn(C)c2)n(C)n1	-5.885	-
CN(C)c1cc(CNC(=O)c2ccccn2)ccn1	-	22.94
NCc1noc2c1CCCC2	79.5	-
c1cc(NCC2CCCO2)cnn1 (stereo not given)	-	20.52
CCCNC(=O)c1ccc2snnc2c1	47.93	59.26
CC(C)N(CCS(=O)(=O)c1ccccc1)CC(N)=O	50.53	52.09
CCN(CC)CCOC1CNC1	-7.015	-
NCCc1nnc(N)o1	-	0.5903
O=C(NCCCOC(F)F)NCc1ccc(Br)o1	66.47	70.02
OCC1CN(Cc2ccc(Br)c3cccnc23)CCO1 (stereo not given)	-	46.75
COCCN(Cc1cccs1)C(=O)C1CCNC1 (stereo not given)	-	3.643
COc1ccc(CCC(=O)N2CCCNCC2)cc1	4.786	15.9
O=C(NCC1CCCO1)c1cc(-c2cccs2)on1 (stereo not given)	71.91	68.06
NCc1cc(N[C@H](CO)CC2CCCCC2)ncn1	-	63.43
COc1cc(Br)c(CN)cc1OC	4.522	13.43
CCN(CC)C(=O)CN(C)S(=O)(=O)C(C)C(F)(F)F (stereo not given)	-	10.49
COc1ccc(CNC(=O)CCC2CCCO2)cn1 (stereo not given)	-	52.84
O=C(C1CCc2ccccc21)N1CCS(=O)(=O)CC1 (stereo not given)	-	9.931
COCCn1ccnc1C1CCCN(C(=O)CSC)C1 (stereo not given)	-	8.934
N[C@@H]1CC[C@@H]1NS(=O)(=O)Cc1ccccc1	-	28.2
COCC(O)CNc1ncc(Br)cn1 (stereo not given)	9.961	-
CS(=O)(=O)Cc1ccc(CN)cc1	9.766	25.52
CN1CC(NC(=O)COc2cccnc2)CCC1=O (stereo not given)	-	-0.6261
O=C(CCS(=O)(=O)c1ccccn1)NC1CCCCC1	-	13.7
Cc1nnc(SCCCN)s1	-	7.974
CN(Cc1ccc2nonc2c1)C(=O)c1ccon1	-	13.68
CO[C@@H]1CCOC[C@H]1NC(=O)c1cccc(N(C)C)c1	-	9.856
CC(=O)N1CCc2onc(-c3ccc(F)c(F)c3)c2C1	53.05	51.13
CC(N)c1noc(-c2ccc(Cl)cc2)n1 (stereo not given)	60.38	75.25
Cc1ccc(S(C)(=O)=O)cc1NC(=O)C1CCC1	1.158	-
COc1c(CNCc2nncn2C)c(C)nn1C	-	-11.43
CN1CCCN(C(=O)COc2cccc(Cl)c2)CC1	-	52.4
CNS(=O)(=O)c1ccc(C(=O)NCC(C)(C)N(C)C)o1	-	-12.34
CNC(=O)C(NC(=O)C1CCC1)c1ccccc1 (stereo not given)	-	8.516
COc1ccccc1S(=O)(=O)NC1CCN(C)CC1	-	6.804
Cc1csc(CN)c1	14.81	-
CCOc1cc(-c2nnn(C)n2)ccc1OC	-	-1.009
CC(C)(O)C(=O)NC1CCN(CC2CCCC2)CC1	8.017	-
NCCNC(=O)c1ccno1	-	35.9
CCOC(=O)CCC(=O)c1ccc2c(c1)OCCO2	78.94	61.58
CN(C)c1cc(CN)c2ccccc2n1	88.55	92.9
OCC1CCN(CCc2ccccc2)C1 (stereo not given)	65.49	-3.68
CO[C@H]1CNCC1NC(=O)Cc1cccc(F)c1F (stereo not given in full)	-	-9.442

Repeated from the top, 5 entries:

- Cc1cccc(N2CCN(C3CC3)CC2)n1 : B: 6.122%
- COCCNC(=O)CN1CCCC(C)C1 (stereo not given) : B: 7.009%
- Cc1ccoc1C(=O)N(C)Cc1snnc1C : B: 30.33%
- NC(=O)c1ccc(-c2ccc(F)cc2)o1 : A: 15.52%; B: 24.33%
- NC1CCN(CC(F)F)CC1 : B: -6.291%

The values are deposited in ChEMBL (CHEMBL3988442, “University of Dundee, Small-Polar-MMV Screening Library” (2021)).